A mixed list of measured activities; the numbers were collected in NIAID ChemDB.

All rows: target-level tests; agent: HIV-1; target: gp120

An empty or dashed field is not shown. Neighbouring rows are from separate reports. Percent inhibition refers to the dose given; in toxicity tests it is the harm to the cells. ICn: concentration for n% inhibition. Fold resistance: result on the changed form divided by that on wild type.

SMILES,conditions,mutations,read by,strain,read-out,dose,value
CCCCCCC[C@H]1CC2CCC3=C(C(=O)OCCCCN=C(N)N)C(CCCCC)N=C(N1)N32,,,,,IC50,,>100 µM
CC(C)(CS(=O)(=O)[O-])[NH2+]C(=O)C(CC(F)(OC(F)(F)C(F)(OC(F)(F)C(F)(OC(F)(F)C(F)(F)C(F)(F)F)C(F)(F)F)C(F)(F)F)C(F)(F)F)C(F)(OC(F)(F)C(F)(OC(F)(F)C(F)(OC(F)(F)C(F)(F)C(F)(F)F)C(F)(F)F)C(F)(F)F)C(F)(F)F,,,ELISA,,inhibition,0.16 µg/mL,38%
O=CC(O)C(OC(=O)c1cc(O)c(O)c(O)c1)C1OC(=O)c2cc(O)c(O)c(O)c2-c2c(cc(O)c(O)c2O)C(=O)OCC1O,,,binding,,inhibition,1.56 µg/mL,0.7%
O=C(O[C@@H]1[C@H](O)C[C@@](OC(=O)c2cc(O)c(O)c(O)c2)(C(=O)O)C[C@H]1OC(=O)c1cc(O)c(O)c(O)c1)c1cc(O)c(O)c(O)c1,,,fluorescence,,IC50,,0.7 µM
O=C(OC[C@H]1O[C@@H](O)[C@@H]2OC(=O)c3cc(O)c(O)c(O)c3-c3c(cc(O)c(O)c3O)C(=O)O[C@H]2[C@@H]1OC(=O)c1cc(O)c(O)c(O)c1Oc1cc2c(c(O)c1O)-c1c(cc(O)c(O)c1O)C(=O)O[C@@H]1[C@@H](OC2=O)[C@H](OC(=O)c2cc(O)c(O)c(O)c2)O[C@@H]2COC(=O)c3cc(O)c(O)c(O)c3-c3c(cc(O)c(O)c3O)C(=O)O[C@@H]12)c1cc(O)c(OC(=O)c2cc(O)c(O)c(O)c2)c(O)c1,,,binding,,inhibition,0.78 µg/mL,42.6%
O=C(O)C1=C[C@@H](OC(=O)c2cc(O)c(O)c(O)c2)[C@@H](O)[C@H](OC(=O)c2cc(O)c(O)c(O)c2)C1,,,fluorescence,,IC50,,76 µM
C=Cc1c(C)c2cc3[nH]c(cc4nc(cc5nc(cc1[nH]2)C(C)=C5CCC(=O)O)C(CCC(=O)O)=C4C)c(C)c3C(C)O,,,,,IC50,,<60 µg/mL
COc1ccnc2[nH]cc(C(=O)C(=O)N3CCN(C(=O)c4ccccc4)C[C@H]3C)c12,,GP120-M343I,ELISA,LAI,fold resistance,,28
O=C(C(=O)N1CCN(C(=O)c2ccccc2)CC1)c1c[nH]c2ccccc12,,,ELISA,YU2,inhibition,1 µM,80%
NOCc1c(F)cccc1Cl,,,ELISA,,inhibition,20 µg/mL,7%
CC1=C(CCC(=O)O)c2cc3nc(cc4[nH]c(cc5[nH]c(cc1n2)c(C)c5CCC(=O)O)c(CCC(=O)O)c4C)C(CCC(=O)O)=C3C,,,,,IC50,,>60 µg/mL
Cc1ncc(COP(=O)(O)O)c(C=O)c1O,,,binding,,Ki,,15 µM
O=C1OCC2OC(O)C(O)C(O)C2OC(=O)c2cc(O)c(O)c(O)c2-c2c(O)c(O)c3oc(=O)c4c(c(O)c(O)c5oc(=O)c2c3c54)-c2c1cc(O)c(O)c2O,,,fluorescence,,IC50,,0.5 µM
CC1=C(CCC(=O)O)c2cc3nc(cc4[nH]c(cc5[nH]c(cc1n2)c(CCC(=O)O)c5CC(=O)O)c(CCC(=O)O)c4C)C(CCC(=O)O)=C3C,,,,,inhibition,60 µg/mL,14.7%
COC(=O)C(=O)N1CCC[C@@H]1C(=O)N[C@H](Cc1ccccc1)C(=O)OCc1ccccc1,3% FBS,,ELISA,,inhibition,500 µM,17%
CSCC[C@H](NC(=O)[C@@H]1CCCN1C(=O)[C@H](Cc1cnc[nH]1)NC(=O)[C@H](Cc1c[nH]c2ccccc12)NC(=O)[C@@H](N)Cc1ccccc1)C(=O)N[C@@H](Cc1cnc[nH]1)C(=O)N[C@@H](CC(=O)O)C(=O)O,,,ELISA,SF2,IC50,,68 µM
O=CC1OC(=O)c2cc(O)c(O)c(O)c2Oc2cc3c(c(O)c2O)-c2c(cc(O)c(O)c2O)C(=O)OCC2OC(OC(=O)c4cc(O)c(O)c(O)c4Oc4cc5c(c(O)c4O)-c4c(cc(O)c(O)c4O)C(=O)OC(C(O)COC5=O)C1OC(=O)c1cc(O)c(O)c(O)c1)C(OC(=O)c1cc(O)c(O)c(O)c1)C(OC(=O)c1cc(O)c(O)c(O)c1)C2OC3=O,,,binding,,inhibition,3.13 µg/mL,66.3%
CCCCCCCCC[C@H]1CC2CCC3C(C(=O)OCCCCCCCCCC4N=C(N)N5CCCC5=C4C(=O)OCCCCN=C(N)N)[C@@H](C)N=C(N1)N23,,,ELISA,,IC50,,29 µM